{"source": "patent CN117659177A", "key": {"[1]": {"biological_target": "重组猴痘病毒表面蛋白M1R-His (Monkeypox virus)", "test": "ELISA, M1R-His coated at 2 μg/mL, antibody titrated"}, "[2]": {"biological_target": "生物素化蛋白M1R-His-Biotin (Monkeypox virus)", "test": "ELISA, M1R-His-Biotin coated at 2 μg/mL, antibody titrated"}}}
{"substance": "Anti-Monkeypox virus/MPXV M1R Antibody (普健生物, 货号 SAA0283)", "values": [{"measurement": "EC50", "setting": "[1]", "result": 0.025, "unit": "µg/mL"}, {"measurement": "EC50", "setting": "[2]", "result": 0.024, "unit": "µg/mL"}]}
